Results reported in paper PMC10470515.

Tests used:
[1] = system: NceR-His (Neisseria gonorrhoeae FA19); experiment: competition with a labelled probe; conditions: unlabeled ompA probe inhibits binding to labeled ompA probe, 5 ug NceR; EMSA: 5 ng 32P probe, 6% native PAGE at 4 C, pH 8.5 (binding buffer not given); recombinant protein; residues 1-99; protein details: N-terminal His (pET-15b); label: 32P; probe letters rebuilt from the primers and the genome
[2] = system: NceR-His (Neisseria gonorrhoeae FA19); experiment: EMSA; conditions: complete shift with 5 ug NceR and 5 ng probe, 0.156-20 ug tested; EMSA: 5 ng 32P probe, 6% native PAGE at 4 C, pH 8.5 (binding buffer not given); recombinant protein; residues 1-99; protein details: N-terminal His (pET-15b); label: 32P; probe letters rebuilt from the primers and the genome
[3] = system: NceR-His (Neisseria gonorrhoeae FA19); experiment: DNase I footprinting; conditions: three protected sites, one within the -35 region, one within a MisR-binding site, 2, 4, 8 ug NceR; recombinant protein; residues 1-99; protein details: N-terminal His (pET-15b); label: 5' 6-FAM (coding strand), 5' HEX (template strand); probe letters rebuilt from the primers and the genome

Sequence	binding result [1]	binding result [2]	binding result [3]
CCGCCTTAGCTCAAAGAGAACGATTCTCTAAGGTGCTGAAGCACCAAGTGAATCGGTTCCGTACTATCTGTACTGTCTGCGGCTTCGCCGCCTTGTCCTGATTTTTGTTAATCCACTATATTCCTAAACCCACCATCCGCGCCTGCCGCACGTACACGTCGACAAACCGAAAATATGGCTGCTCGGCGGCATCGTCGGCGCGTGGGGCTGCCATAAAATCGGACACCATTTCTCCCTGCCCGTTTCGGCAGTATTGCCGATACCGGGTGCAGGCTCGGTCGGCTACGATGTGAAGGTACGTTTTTTTGCGGATGTGGCTGCGGTTTCGGCGCAAATCACGATAAACCCGCGTTGTTTCGGGAAAAATCGGGTAATTTCAGGTTAATTGCACTTTTTCAGACGGCATGATTGCTTATAGTTGTACGGTTTGACATATGCACGGAAGGAAACGCCATGACTTTCTTCAAACCCTTTACCGTCGTGCTGACCGCATCCGCACTCGCGCTTTCCGGCTGCGTTGCCGACCCCGTAACCGGACAGCAGTCCCCAAACAAATCCGCCATGTACGGTTTGGGTGGCGGAATTCTTAA (double strand) [ompA promoter EMSA probe (580 bp)]	binds	binds	
AGTGAATCGGTTCCGTACTATCTGTACTGTCTGCGGCTTCGCCGCCTTGTCCTGATTTTTGTTAATCCACTATATTCCTAAACCCACCATCCGCGCCTGCCGCACGTACACGTCGACAAACCGAAAATATGGCTGCTCGGCGGCATCGTCGGCGCGTGGGGCTGCCATAAAATCGGACACCATTTCTCCCTGCCCGTTTCGGCAGTATTGCCGATACCGGGTGCAGGCTCGGTCGGCTACGATGTGAAGGTACGTTTTTTTGCGGATGTGGCTGCGGTTTCGGCGCAAATCACGATAAACCCGCGTTGTTTCGGGAAAAATCGGGTAATTTCAGGTTAATTGCACTTTTTCAGACGGCATGATTGCTTATAGTTGTACGGTTTGACATATGCACGGAAGGAAACGCCATGACTTTC (double strand) [ompA promoter footprint probe]			binds
